Measured values from several laboratories, pooled; numbers as filed in NIAID ChemDB.

Shared fields: whole-cell or culture tests; organism: HIV-1; method: p24; endpoint: EC90

ECn is the concentration giving n% inhibition of infection, replication or growth. Lines come from different laboratories, so protocols vary. Blank or dashed fields: not listed here.

{"smiles": "CNc1ncnc2c1ncn2[C@H]1CC[C@@H](CO)O1", "strain": "GB8", "cells": "JM", "value": "20 µM"}
{"smiles": "NC(=O)c1[nH]c2ccc(Cl)cc2c1S(=O)(=O)c1ccccc1", "mutations": "RT-K103R V179D P225H", "strain": "EFV-resistant (RT K103R V179D P225H)", "cells": "C8166", "value": "0.9 µM"}
{"smiles": "COc1ccc(S(=O)(=O)N(CC(C)C)C[C@@H](O)CCN(CC2CCCC2)S(=O)(=O)c2ccccc2)cc1", "strain": "IIIB", "cells": "CEM", "value": "1 µM"}
{"smiles": "Nc1nc(=O)n([C@H]2C=C[C@@H](CO)O2)cc1F", "strain": "NL4-3 WT", "cells": "PBMC", "value": "1.3 µM"}
{"smiles": "COc1ccc(S(=O)(=O)N(CC(C)C)C[C@@H](O)CCN(CC2CCCC2)S(=O)(=O)Cc2ncc[nH]2)cc1", "strain": "IIIB", "cells": "CEM", "value": "1 µM"}
{"smiles": "Nc1ccc(S(=O)(=O)N(CC2CCCC2)C[C@@H](O)[C@H](Cc2ccccc2)NC(=O)O[C@@H]2CCOC2)cc1", "strain": "IIIB", "cells": "CEM", "value": "≤0.1 µM"}
{"smiles": "COc1ccc(S(=O)(=O)NC(Cc2ccccc2)C(F)(F)C(=O)[C@@H](Cc2ccccc2)NC(=O)OC2COCOC2)cc1", "strain": "IIIB", "cells": "CEM", "value": "1 µM"}
{"smiles": "CC(C)CN(C[C@@H](O)[C@H](Cc1ccccc1)NC(=O)[C@H](CC(N)=O)NC(=O)c1ccc2ccccc2n1)S(=O)(=O)N(C)C", "strain": "IIIB", "cells": "CEM", "value": "≤0.1 µM"}
{"smiles": "Cc1cc(CS(=O)(=O)N(CC2CCCC2)C[C@@H](O)CN(CCc2ccccc2)C(=O)c2ccccc2)no1", "strain": "IIIB", "cells": "CEM", "value": "1 µM"}
{"smiles": "O=C(N[C@@H](Cc1ccccc1)[C@H](O)CN(CC1CCCC1)S(=O)(=O)c1ccc(O)cc1)OCc1cccnc1", "strain": "IIIB", "cells": "CEM", "value": "≤0.1 µM"}
{"smiles": "CC(C)CN(CC(O)CC(=O)N1CCN(Cc2cccnc2)C[C@H]1C(=O)NC(C)(C)C)S(=O)(=O)c1ccccc1", "strain": "IIIB", "cells": "CEM", "value": "1 µM"}
{"smiles": "O=C(N[C@@H](Cc1ccccc1)[C@H](O)CN(CC1CCCC1)S(=O)(=O)c1ccc(Cl)cc1)O[C@H]1CCOC1", "strain": "IIIB", "cells": "CEM", "value": "≤0.1 µM"}
{"smiles": "Cc1ccc(C)n1-c1ccc(C(=O)O)c(O)c1", "strain": "AZT-resistant X4 CLADE B", "cells": "MT-2", "value": "15.07 µM"}
{"smiles": "CN(C)c1ncnc2c1ncn2[C@H]1CC[C@@H](CO)O1", "strain": "GB8", "cells": "JM", "value": "40 µM"}
{"smiles": "CC(C)CN(C[C@@H](O)[C@H](Cc1ccccc1)NC(=O)[C@H](CC(N)=O)NC(=O)c1ccc2ccccc2n1)S(=O)(=O)c1ccc(F)cc1", "strain": "IIIB", "cells": "CEM", "value": "≤0.1 µM"}

Repeating the final 2 entries:

smiles | mutations | strain | cells | value
CN(C)c1ncnc2c1ncn2[C@H]1CC[C@@H](CO)O1 | - | GB8 | JM | 40 µM
CC(C)CN(C[C@@H](O)[C@H](Cc1ccccc1)NC(=O)[C@H](CC(N)=O)NC(=O)c1ccc2ccccc2n1)S(=O)(=O)c1ccc(F)cc1 | - | IIIB | CEM | ≤0.1 µM